Compound potency records, mixed from different reports. Data source: NIAID ChemDB in PubChem.

Shared fields: growth or infection tests; organism: Aspergillus niger; read by: broth dilution; endpoint: MIC

An empty or dashed field is not shown. Neighbouring rows are from separate reports.

Cc1ccc(C=NNC(=O)c2cnc3c(ccc4[nH]c(Cl)cc(C)c43)c2=O)cc1 ; result: 500 µg/mL
COc1cc(OCC(=O)c2ccccc2)cc(OC)c1OC ; conditions: 48 h ; strain: ATCC 16404 ; result: >125 µg/mL
CCCCCCCCCC(=O)NC(CCCN)C(=O)NC(CCCN)C(=O)NC(CCCN)C(=O)NC(CCCN)C(N)=O ; strain: ATCC 64028 ; result: 100 µg/mL
C[n+]1c[nH]cc1-c1ccccc1 ; conditions: 48 h ; strain: ATCC 16404 ; result: 500 µg/mL
Nc1scc2c1c(=O)oc1ccc3ccccc3c12 ; result: 32 µg/mL
CCCCCCCCCCCCCCCC(=O)NC(CCCN)C(=O)NC(CCCN)C(=O)NC(CCCN)C(N)=O ; strain: ATCC 64028 ; result: 1.5 µg/mL
O=C(/C=C/c1ccc(OCCCCCOc2ccc(/C=C/C(=O)c3ccccc3)cc2)cc1)c1ccccc1 ; result: 8 µg/mL
Cc1nc2c(s1)C(=O)C(Nc1ccc(Br)cc1)=C(Cl)C2=O ; strain: KCTC 1231 ; result: 6.3 µg/mL
CC1=C(Cl)C(O)=CC(=O)C12Oc1cc(O)c(Cl)c(C)c1C2=O ; strain: MTCC 282 ; result: 100 µg/mL
CCCCCCCCCCCC(=O)NC(CCCN)C(N)=O ; strain: ATCC 64028 ; result: >100 µg/mL
O=C(NN1C(=O)/C(=C/c2cc3ccccc3nc2Cl)N=C1c1ccccc1)c1ccccc1 ; strain: MTCC 282 ; result: 500 µg/mL
COc1ccc(C=NNC(=O)c2cnc3c(ccc4[nH]c(Cl)cc(C)c43)c2=O)cc1 ; result: 500 µg/mL
Cc1ccc(NC2=C(Cl)C(=O)c3nc(C)sc3C2=O)cc1 ; strain: KCTC 1231 ; result: 25 µg/mL
O=C(COc1cccc(Cl)c1)c1ccccc1 ; conditions: 48 h ; strain: ATCC 16404 ; result: >125 µg/mL
CCCCCCCC(=O)NC(CCCN)C(=O)NC(CCCN)C(N)=O ; strain: ATCC 64028 ; result: >100 µg/mL
COc1ccccc1C1C(Cl)C(=O)N1NC(=O)c1cnc2c(ccc3[nH]c(Cl)cc(C)c32)c1=O ; result: >1000 µg/mL
O=C(/C=C/c1ccc(OCCCCCCCCCCCCOc2ccc(/C=C/C(=O)c3ccccc3)cc2)cc1)c1ccccc1 ; result: 8 µg/mL
O=C(Cc1ccccc1)NN1C(=O)/C(=C/c2cc3ccccc3nc2Cl)N=C1c1ccccc1 ; strain: MTCC 282 ; result: 1000 µg/mL
CCCOC(=O)CC(c1nccn1C)c1nccn1C ; conditions: 24 h ; strain: ATCC 16404 ; result: >512 µg/mL
CCC(C)CC(C)CCCCCCCCC(=O)N[C@H]1C[C@@H](O)[C@H](NCCN)NC(=O)[C@@H]2[C@@H](O)CCN2C(=O)[C@H]([C@H](O)CCN)NC(=O)[C@H]([C@H](O)[C@@H](O)c2ccc(O)cc2)NC(=O)[C@@H]2C[C@@H](O)CN2C(=O)[C@H]([C@@H](C)O)NC1=O ; strain: 27 ; result: 64 µg/mL
Cc1nc2c(s1)C(=O)C(Nc1ccccc1)=C(Cl)C2=O ; strain: KCTC 1231 ; result: 25 µg/mL
Cn1ccnc1Cc1nccn1C ; conditions: 24 h ; strain: ATCC 16404 ; result: 500 µg/mL
O=C(/C=C/c1ccc(OCCCCOc2ccc(/C=C/C(=O)c3ccccc3)cc2)cc1)c1ccccc1 ; result: 16 µg/mL
CCCCCCCCCCCCCCCCCC(=O)NC(CCCN)C(=O)NC(CCCN)C(=O)NC(CCCN)C(=O)NC(CCCN)C(N)=O ; strain: ATCC 64028 ; result: 1.5 µg/mL
O/N=C(/COc1cccc(F)c1)c1ccccc1 ; conditions: 48 h ; strain: ATCC 16404 ; result: >125 µg/mL
Cc1nc2c(s1)C(=O)C(Nc1cccc(F)c1)=C(Cl)C2=O ; strain: KCTC 1231 ; result: 6.3 µg/mL
O=C(NN1C(=O)/C(=C/c2cc3ccccc3nc2Cl)N=C1c1ccccc1)c1cccc(O)c1 ; strain: MTCC 282 ; result: 100 µg/mL
c1ccc(C2=NN(c3ccccc3)C(c3ccc(OCCCCCOc4ccc(C5CN(c6ccccc6)N=C5c5ccccc5)cc4)cc3)C2)cc1 ; result: 32 µg/mL
CCOC(=O)c1c(N)oc2c1cc(O)c1sc(C)nc12 ; strain: KCTC 1231 ; result: 100 µg/mL
COc1ccc(OCC(=O)c2ccccc2)cc1 ; conditions: 48 h ; strain: ATCC 16404 ; result: >125 µg/mL
O=C(NN1C(=O)/C(=C/c2cc3ccccc3nc2Cl)N=C1c1ccccc1)c1ccc([N+](=O)[O-])cc1 ; strain: MTCC 282 ; result: 100 µg/mL
CCCCCCCCCCCCCCCC(=O)NC(CCCN)C(=O)NC(CCCN)C(N)=O ; strain: ATCC 64028 ; result: 12.5 µg/mL
Cc1cc(Cl)[nH]c2ccc3c(=O)c(C(=O)NN4C(=O)C(Cl)C4c4cc([N+](=O)[O-])ccc4O)cnc3c12 ; result: 500 µg/mL
CCCCCCCC(=O)NC(CCCN)C(=O)NC(CCCN)C(=O)NC(CCCN)C(=O)NC(CCCN)C(=O)NC(CCCN)C(N)=O ; strain: ATCC 64028 ; result: >100 µg/mL
Cc1cc(Cl)[nH]c2ccc3c(=O)c(C(=O)NN=Cc4ccccc4)cnc3c12 ; result: >1000 µg/mL

4 of the rows above, restated:

SMILES | conditions | strain | result
O=C(COc1cccc(Cl)c1)c1ccccc1 | 48 h | ATCC 16404 | >125 µg/mL
Cc1cc(Cl)[nH]c2ccc3c(=O)c(C(=O)NN=Cc4ccccc4)cnc3c12 | - | - | >1000 µg/mL
CCCCCCCCCCCCCCCC(=O)NC(CCCN)C(=O)NC(CCCN)C(=O)NC(CCCN)C(N)=O | - | ATCC 64028 | 1.5 µg/mL
Cc1cc(Cl)[nH]c2ccc3c(=O)c(C(=O)NN4C(=O)C(Cl)C4c4cc([N+](=O)[O-])ccc4O)cnc3c12 | - | - | 500 µg/mL